For one substance, Km results are on record in article doi:10.1101/2021.05.31.446396v1.

The data set concerns Nc1ncnc2c1ncn2[C@@H]1O[C@H](COP(=O)(O)OP(=O)(O)OP(=O)(O)O)[C@@H](O)[C@H]1O. The experiment in a line: purified protein. The settings on record: pH 7.5.

(Mycobacterium tuberculosis H37Rv): the Km (commonly the concentration of substrate that gives half-maximal velocity) reads like this: (20.0 °C) 60 ± 30 µM; (25.0 °C) 30 ± 10 µM.
